Results of unrelated studies side by side (data: NIAID ChemDB).

All rows: tests on isolated targets

Rows are shuffled and stem from different studies.

structure,species,strain or isolate,protein,endpoint,tested at,value
CCC(CC)Oc1cc(C(=O)O)ccc1NC(C)=O,Influenza A virus,H1N9,Neuraminidase,IC50,-,37 µM
CC(=O)NC(C(=O)N1CC(C)CC(C)C1)[C@H]1CC(C(=O)O)C[C@@H]1N=C(N)N,Influenza A virus (H6N2),-,Neuraminidase,IC50,-,3.5 µM
Cc1nc(N)c2ncn([C@@H]3O[C@H](COC(=O)c4ccc(S(=O)(=O)F)cc4)[C@@H](O)[C@H]3O)c2n1,Japanese encephalitis virus,-,NTPase/helicase,inhibition,300 µM,52%
CCCN(C)C(=O)C(NC(C)=O)[C@H]1CC(C(=O)O)C[C@@H]1N=C(N)N,Influenza A virus (H6N2),-,Neuraminidase,IC50,-,0.94 µM
NC(=O)c1ncn([C@@H]2O[C@H](COC(=O)c3ccc(S(=O)(=O)F)cc3)[C@@H](O)[C@H]2O)n1,Japanese encephalitis virus,-,NTPase/helicase,inhibition,300 µM,20%
O=C(N[C@@H](Cc1c[nH]c2ccc(O)cc12)C(=O)O)c1ccc2c(c1)nc(-c1ccoc1)n2[C@@H]1CCC[C@H]1OCc1ccccc1,Poliovirus,-,RNA-dependent RNA polymerase,IC50,-,>25 µM
CC(=O)NC(C(=O)NC(C)CC(C)C)[C@H]1CC(C(=O)O)C[C@@H]1N=C(N)N,Influenza A virus (H6N2),-,Neuraminidase,IC50,-,8.4 µM
COc1ccc([C@@H](C)NC(=O)c2ccc3c(c2)nc(-c2ccoc2)n3C2CCCCC2)cc1OC,Poliovirus,-,RNA-dependent RNA polymerase,IC50,-,>25 µM
CCC(CC)Nc1cc(C(=O)O)ccc1NC(C)=O,Influenza A virus,H1N9,Neuraminidase,IC50,-,25 µM
COc1ccc(CNC(=O)c2ccc3c(c2)nc(-c2ccccn2)n3[C@H]2CCCC[C@@H]2O)cc1OC,Poliovirus,-,RNA-dependent RNA polymerase,IC50,-,>25 µM
CC(=O)Nc1ccc(C(=O)O)cc1N,Influenza A virus,N2 (A/TOKYO/67),Neuraminidase,IC50,-,>10000 µM
Cc1c(C(=O)O)ccc2c1nc(-c1ccoc1)n2C1CCCCC1,Poliovirus,-,RNA-dependent RNA polymerase,IC50,-,>25 µM
COc1cccc2c1C(=O)c1c(O)c3c(c(O)c1C2=O)C[C@@](O)(C(C)=O)C[C@@H]3O[C@H]1C[C@H](N)[C@H](O)[C@H](C)O1,Japanese encephalitis virus,-,NTPase/helicase,IC50,-,100 µM
CC(=O)NC(C(=O)N1CCCC1)[C@H]1CC(C(=O)O)C[C@@H]1N=C(N)N,Influenza A virus (H6N2),-,Neuraminidase,IC50,-,0.47 µM
CN(C)CCCNC(=O)[C@H](Cc1ccc(O)cc1)NC(=O)c1ccc2c(c1)nc(-c1ccoc1)n2C1CCCCC1,Poliovirus,-,RNA-dependent RNA polymerase,IC50,-,>25 µM

Repeating the first 2 entries:

structure	species	strain or isolate	protein	endpoint	tested at	value
CCC(CC)Oc1cc(C(=O)O)ccc1NC(C)=O	Influenza A virus	H1N9	Neuraminidase	IC50	-	37 µM
CC(=O)NC(C(=O)N1CC(C)CC(C)C1)[C@H]1CC(C(=O)O)C[C@@H]1N=C(N)N	Influenza A virus (H6N2)	-	Neuraminidase	IC50	-	3.5 µM

An empty or dashed field is not shown. Inhibition is in % at the dose shown (toxicity tests: loss of growth or viability). ICn is the concentration giving n% inhibition.